Results of unrelated studies side by side (data: NIAID ChemDB).

All rows: tests in culture; agent: Herpes simplex virus 2

a–b is a range or a potency band. Blank or dashed fields: not listed here. ECn: concentration that inhibits the pathogen or its effect by n%. Rows are shuffled and stem from different studies.

| SMILES | method | strain | read-out | cells | result |
|---|---|---|---|---|---|
| NCC(=O)N[C@@H](Cc1ccccc1)C(=O)OCCOCn1cnc2c(=O)[nH]c(N)nc21 | - | 196 | MIC | - | 4.5 µM |
| CO[C@H]1C[C@H](O[C@H]2CC[C@]3(C=O)[C@H]4CC[C@]5(C)[C@@H](C6=CC(=O)OC6)CC[C@]5(O)[C@H]4CC[C@]3(O)C2)O[C@H](C)[C@H]1O | plaque count | 333 | EC50 | GMK AH1 | 0.11 µM |
| O=C(O)P(=O)(O)O | cytopathic effect | ACV-resistant | EC50 | HEL | 27 µg/mL |
| CCCOC(=O)c1cc(O)c(O)c(O)c1 | plaque count | G | EC50 | HEL | 9.1 µg/mL |
| Nc1nc(=O)c2ncn(CCOCP(=O)(O)O)c2c(=O)[nH]1 | cytopathic effect | - | EC50 | HepG2.2.15 | 1.4 µM |
| Nc1nccc2c1ncn2[C@@H]1C[C@H](CO)[C@@H](O)[C@H]1O | cytopathic effect | G | EC50 | PRK | >400 µg/mL |
| C[C@H]1C[C@@H](n2cnc3c(N)ncnc32)[C@H](O)[C@@H]1O | cytopathic effect | G | EC50 | E6SM | 300 µg/mL |
| CCCC#Cc1c(C(N)=O)ncn1[C@@H]1O[C@H](CO)[C@@H](O)[C@H]1O | cytopathic effect | G | EC50 | PRK | >400 µg/mL |
| O=c1[nH]cccc1O | plaque count | G | EC50 | HEL | >200 µg/mL |
| Nc1nc2c(ncn2[C@@H]2C=C[C@H](CO)CC2)c(=O)[nH]1 | plaque count | - | EC50 | - | 0.1–1 µM |
| CC#Cc1cn([C@@H]2O[C@H](COP(=O)(O)Oc3c(C)cccc3C)[C@@H](O)[C@@H]2O)c(=O)[nH]c1=O | plaque count | SC16 | EC50 | VERO | >10 µM |
| CCC(C)C(N)C(=O)O[C@H]1C[C@H](n2cc(/C=C/Br)c(=O)[nH]c2=O)O[C@@H]1COP1(=O)OCc2cccc(C)c2O1 | plaque count | G (TK+) | EC50 | VERO | >128 µg/mL |
| O=c1[nH]c(=O)n([C@H]2C[C@H](O)[C@@H](CO)O2)cc1/C=C/Br | cytopathic effect | LYONS | EC50 | E6SM | 240 µg/mL |
| O=c1[nH]c(=O)n(C2OC(CO)CC2F)cc1I | - | - | EC50 | VERO | >100 µM |
| Nc1nc(N)c2nnn(C[C@H]3CC[C@@H](CO)C3)c2n1 | cytopathic effect | G | EC50 | E6SM | >400 µg/mL |
| COC(C)c1cn([C@@H]2O[C@H](CO)[C@@H](O)[C@H]2O)c2ncnc(N)c12 | cytopathic effect | - | EC50 | PRK | 40 µg/mL |
| Cc1cccc2c1OP(=O)(OC[C@H]1O[C@@H](n3cc(/C=C/Br)c(=O)[nH]c3=O)C[C@@H]1OC(=O)[C@@H](N)Cc1ccccc1)OC2 | plaque count | G (TK+) | EC50 | VERO | >128 µg/mL |
| CC#Cc1cn([C@@H]2O[C@H](COP(=O)(NCCC)Oc3ccccc3)[C@@H](O)[C@@H]2O)c(=O)[nH]c1=O | plaque count | SC16 | EC50 | VERO | >100 µM |
| C[C@H]1O[C@@H](O[C@H]2CC[C@@]3(C)[C@H](CC[C@@H]4[C@@H]3CC[C@]3(C)[C@@H](C5=CC(=O)OC5)CC[C@]43O)C2)C[C@H](O)[C@@H]1O | plaque count | 333 | EC50 | GMK AH1 | 0.03 µM |
| COc1c2c(cc3ccoc13)C(=O)[C@@]1(O)c3cc4c(cc3OC[C@H]1O2)OCO4 | plaque count | 186 | EC50 | VERO | >50 µg/mL |
| CC(C)(C)C(=O)OCOC(=O)CN(CC(=O)OCOC(=O)C(C)(C)C)P(=O)(OC[C@H]1O[C@@H](n2cc(/C=C/Br)c(=O)[nH]c2=O)C[C@@H]1O)Oc1ccccc1 | - | G | EC50 | HEL | >4 µM |
| CC(C)NCC(O)c1ccc(O)c(O)c1 | plaque count | G | EC50 | HEL | 57 µg/mL |
| C[C@@H]1CC[C@H]2[C@@H](C)C(=O)O[C@@H]3OC4(C)CC[C@@H]1[C@]32OO4 | cytopathic effect | G | EC50 | E6SM | 240 µg/mL |
| Nc1nccc2c1ncn2[C@@H]1O[C@H](CO)[C@@H](O)[C@H]1O | cytopathic effect | - | EC50 | PRK | ≥40 µg/mL |
| CC(C)[C@H](NC(=O)[C@H](C)N)C(=O)OCCOCn1cnc2c(=O)[nH]c(N)nc21 | - | 196 | MIC | - | 1.3 µM |
| Nc1nc2c(ncn2CCC(CO)CO)c(=O)[nH]1 | cytopathic effect | PCV-resistant/A | EC50 | HEL | 11 µg/mL |
| CCC(=O)O[C@H]1C[C@H](n2cc(/C=C/Br)c(=O)[nH]c2=O)O[C@@H]1COP1(=O)OCc2cccc(C)c2O1 | plaque count | G (TK+) | EC50 | VERO | >64 µg/mL |
| NC(=O)c1ncn([C@@H]2O[C@H](CO)[C@@H](O)[C@H]2O)c1C#Cc1ccccc1 | cytopathic effect | G | EC50 | PRK | >400 µg/mL |
| Cc1cn([C@@H]2C[C@@H](O)[C@H](CO)O2)c(=O)[nH]c1=O | - | - | EC50 | HFF | >100 µM |
| Nc1nc2c(ncn2[C@H]2C[C@@]23C[C@H]3CO)c(=O)[nH]1 | plaque count | - | EC50 | VERO | >50 µM |
| Cc1cn([C@H]2O[C@@H](CO)C[C@H]2F)c(=O)nc1N | - | - | EC50 | VERO | >100 µM |
| Nc1ncnc2c1ccn2[C@H]1C[C@H](O)[C@@H](CO)O1 | - | G | EC50 | HEL | 69 µM |
| Nc1ncnc2c1ncn2C[C@H](O)CO | cytopathic effect | LYONS G 196 | EC50 | PRK | ≥400 µg/mL |
| Nc1nc2c(ncn2[C@H]2C[C@@]23C[C@@H]3CO)c(=O)[nH]1 | plaque count | - | EC50 | VERO | >50 µM |
| O=c1[nH]c(=O)n([C@H]2C[C@H](O)[C@@H](COP3(=O)OCc4cc5ccccc5cc4O3)O2)cc1/C=C/Br | plaque count | G (TK+) | EC50 | VERO | >128 µg/mL |
| CC#Cc1cn([C@@H]2O[C@H](COP(=O)(O)OCC(F)(F)F)[C@@H](O)[C@@H]2O)c(=O)[nH]c1=O | plaque count | SC16 | EC50 | VERO | >100 µM |
| Nc1ccnc2c1ncn2[C@H]1C[C@H](O)[C@@H](COP(=O)(O)COC(=O)[C@@H](N)CC(=O)O)O1 | - | G | EC50 | HEL | >100 µM |
| Nc1nc2c(ncn2COCCOC(=O)CNC(=O)[C@@H](N)Cc2ccccc2)c(=O)[nH]1 | - | 196 | MIC | - | 0.48 µM |
| Nc1nc2c(ncn2[C@H]2O[C@@H](CO)C[C@@H]2F)c(=O)[nH]1 | - | - | EC50 | VERO | >100 µM |
| CC#Cc1cn([C@@H]2O[C@H](COP(=O)(O)OCC)[C@@H](O)[C@@H]2O)c(=O)[nH]c1=O | plaque count | SC16 | EC50 | VERO | >100 µM |
| CC(=O)CCC(=O)O[C@H]1C[C@H](n2cc(/C=C/Br)c(=O)[nH]c2=O)O[C@@H]1COP1(=O)OCc2ccccc2O1 | plaque count | G (TK+) | EC50 | VERO | >128 µg/mL |
| C[C@H]1OC(O[C@H]2[C@@H](O)C[C@H](O[C@@]3(C)[C@@H](O)C[C@H](O[C@H]4CC[C@@]5(C)[C@H](CC[C@@H]6[C@@H]5C[C@@H](O)[C@]5(C)[C@@H](C7=CC(=O)OC7)CC[C@]65O)C4)O[C@@H]3C)O[C@@H]2C)C[C@H](O)[C@@H]1O | plaque count | 333 | EC50 | GMK AH1 | 0.65 µM |
| COc1cc2c(cc1-c1cc3cc4ccoc4cc3oc1=O)OCO2 | plaque count | 186 | EC50 | VERO | >50 µg/mL |
| CC(=O)O[C@H]1C[C@H](O[C@H]2[C@@H](O)C[C@H](O[C@H]3[C@@H](O)C[C@H](O[C@H]4CC[C@@]5(C)[C@H](CC[C@@H]6[C@@H]5CC[C@]5(C)[C@@H](C7=CC(=O)OC7)CC[C@]65O)C4)O[C@@H]3C)O[C@@H]2C)OC(C)[C@H]1O[C@@H]1O[C@H](CO)[C@@H](O)[C@H](O)[C@H]1O | plaque count | 333 | EC50 | GMK AH1 | 0.24 µM |
| CC(=O)CCC(=O)O[C@H]1C[C@H](n2cc(/C=C/Br)c(=O)[nH]c2=O)O[C@@H]1COP1(=O)OCc2cccc(C)c2O1 | plaque count | G (TK+) | EC50 | VERO | >128 µg/mL |
| Nc1nc(Cl)c2nnn(C[C@H]3CC[C@@H](CO)C3)c2n1 | cytopathic effect | G | EC50 | E6SM | >200 µg/mL |
| Nc1nc2c(ncn2[C@H]2C[C@]23C[C@@H]3CO)c(=O)[nH]1 | plaque count | - | EC50 | VERO | >50 µM |
| Nc1ccnc2c1ncn2C1CC(O)C(CO)O1 | - | G | EC50 | HEL | >100 µM |
| O=c1[nH]c(=O)n([C@H]2C[C@H](O)[C@@H](CO)O2)cc1/C=C/Br | - | 196 | MIC | - | >1000 µM |
| Nc1nc2c(ncn2C=C2CC2CO)c(=O)[nH]1 | plaque count | - | EC50 | - | >100 µM |
| Nc1nc2c(ncn2[C@H]2O[C@@H](CO)C[C@H]2F)c(=O)[nH]1 | - | - | EC50 | VERO | >100 µM |
| Nc1nc2c(ncn2COC(CO)CO)c(=O)[nH]1 | cytopathic effect | ACV-resistant | EC50 | HEL | 0.37 µg/mL |
| CO[C@H]1C[C@H](O[C@H]2CC[C@]3(C=O)[C@H]4CC[C@]5(C)[C@@H](C6=CC(=O)OC6)CC[C@]5(O)[C@@H]4CC[C@]3(O)C2)O[C@H](C)[C@H]1O[C@@H]1O[C@H](CO[C@@H]2O[C@H](CO)[C@@H](O)[C@H](O)[C@H]2O)[C@@H](O)[C@H](O)[C@H]1O | plaque count | 333 | EC50 | GMK AH1 | 0.34 µM |
| NC(=O)c1ncn([C@@H]2O[C@H](CO)[C@@H](O)[C@H]2O)c1C#CCCO | cytopathic effect | G | EC50 | PRK | >400 µg/mL |
| C[C@H]1O[C@@H](O[C@H]2[C@@H](O)C[C@H](O[C@H]3CC[C@@]4(C)[C@H](CC[C@@H]5[C@@H]4C[C@@H](O)[C@]4(C)[C@@H](C6=CC(=O)OC6)CC[C@]54O)C3)O[C@@H]2C)C[C@H](O)[C@@H]1O | plaque count | 333 | EC50 | GMK AH1 | 0.23 µM |
| Cn1cc(NC(=O)c2cc(NC(=O)CN=C(N)N)cn2C)c(C(=O)NCCC(=N)N)c1 | cytopathic effect | G | EC50 | PRK | ≥40 µg/mL |
| Cc1cccc2c1OP(=O)(OC[C@H]1O[C@@H](n3cc(/C=C/Br)c(=O)[nH]c3=O)C[C@@H]1O)OC2 | plaque count | G (TK+) | EC50 | VERO | >128 µg/mL |
| Nc1ncnc2c1c(Br)cn2[C@@H]1O[C@H](CO)[C@@H](O)[C@H]1O | cytopathic effect | - | EC50 | PRK | 0.2 µg/mL |
| Cc1cccc2c1OP(=O)(OC[C@H]1O[C@@H](n3cc(/C=C/Br)c(=O)[nH]c3=O)C[C@@H]1OC(=O)C(C)(C)C)OC2 | plaque count | G (TK+) | EC50 | VERO | >128 µg/mL |
| NCC(O)c1ccc(O)c(O)c1 | plaque count | G | EC50 | HEL | 23 µg/mL |
| O=C(O)CP(=O)(O)O | cytopathic effect | PCV-resistant/B | EC50 | HEL | 4.2 µg/mL |
| NC(=O)c1c[se]c([C@@H]2O[C@H](CO)[C@@H](O)[C@H]2O)n1 | cytopathic effect | MS | EC50 | VERO | 10 µg/mL |
| C[C@H](N)C(=O)OCP(=O)(OC[C@H]1O[C@@H](n2cnc3c(N)ccnc32)C[C@@H]1O)Oc1ccccc1 | - | G | EC50 | HEL | >100 µM |
| Cc1cn([C@H]2O[C@@H](CO)C[C@H]2F)c(=O)[nH]c1=O | - | - | EC50 | VERO | >100 µM |
| Nc1nc(N)c2ncn(C[C@H]3CC[C@@H](CO)C3)c2n1 | cytopathic effect | G | EC50 | E6SM | 300 µg/mL |
| Nc1nccc2c1ncn2[C@H]1C[C@H](O)[C@@H](COP(=O)(O)COC(=O)[C@@H](N)CC(=O)O)O1 | - | G | EC50 | HEL | >100 µM |
| Nc1nc2c(ncn2[C@H]2C=C[C@@H](CO)CC2)c(=O)[nH]1 | plaque count | - | EC50 | - | 0.1–1 µM |
| COc1cc2c(cc1-c1coc3cc4occc4cc3c1=O)OCO2 | plaque count | 186 | EC50 | VERO | 18.5 µg/mL |
| Nc1ccn(C[C@@H](CO)OCP(=O)(O)O)c(=O)n1 | - | G | EC50 | HEL | 2 µM |

A second listing of 5 rows from above:

SMILES,method,strain,read-out,cells,result
Cc1cn([C@H]2O[C@@H](CO)C[C@H]2F)c(=O)nc1N,-,-,EC50,VERO,>100 µM
Cc1cn([C@H]2O[C@@H](CO)C[C@H]2F)c(=O)[nH]c1=O,-,-,EC50,VERO,>100 µM
Nc1nc(Cl)c2nnn(C[C@H]3CC[C@@H](CO)C3)c2n1,cytopathic effect,G,EC50,E6SM,>200 µg/mL
NC(=O)c1ncn([C@@H]2O[C@H](CO)[C@@H](O)[C@H]2O)c1C#CCCO,cytopathic effect,G,EC50,PRK,>400 µg/mL
Cn1cc(NC(=O)c2cc(NC(=O)CN=C(N)N)cn2C)c(C(=O)NCCC(=N)N)c1,cytopathic effect,G,EC50,PRK,≥40 µg/mL